A mixed list of measured activities; the numbers were collected in NIAID ChemDB.

All rows: tests in culture; species: Mycobacterium kansasii; endpoint: MIC

Rows are shuffled and stem from different studies. Blank or dashed fields: not listed here.

| smiles | strain or isolate | read by | setting | value |
|---|---|---|---|---|
| O=C(Nc1cccc(F)c1)c1cc(Cl)ccc1OS(=O)(=O)c1ccccc1 | 235/80 |  | 21 d | 32 µM |
| CC(C)C[C@H](NC(=O)OCc1ccccc1)c1cnc(-c2ccccc2)[nH]1 | My 6509/96 |  | 14 d | >125 µM |
| N/C(=N\N=C\c1ccccc1)SCc1ccc(Br)cc1 | ATCC 12478 | broth dilution | 14 d | 62.5 µM |
| O=C(Oc1cc(Cl)ccc1C(=O)Nc1ccc(Br)cc1)c1ccccc1 | 235/80 | broth dilution | 21 d | 4 µM |
| N/C(=N\N=C\c1cc(Cl)cc(Cl)c1O)SCc1cccc(Cl)c1 | ATCC 12478 | broth dilution | 21 d | 62.5 µM |
| O=C(Oc1cc(Cl)ccc1C(=O)Nc1ccc(C(F)(F)F)cc1)c1ccccc1 | 235/80 | broth dilution | 21 d | 4 µM |
| O=C(Oc1ccc(Cl)cc1C(=O)Nc1cccc(Cl)c1)c1cnccn1 | 6509/96 |  | 14 d | 2 µM |
| O=C(Oc1cc(Cl)ccc1C(=O)Nc1ccc(F)cc1)c1ccccc1 | 6509/96 | broth dilution | 7 d | 4 µM |
| CC[C@@H](C)[C@H](NC(=O)OCc1ccccc1)c1cnc(-c2ccc([N+](=O)[O-])cc2)[nH]1 | My 235/80 |  | 21 d | 62.5 µM |
| O=C(Nc1ccc(F)cc1)c1cc(Cl)ccc1O | 235/80 | broth dilution | 21 d | 4 µM |
| O=C(Nc1ccc(Cl)c(Cl)c1)c1ccc(Cl)cc1OS(=O)(=O)c1ccccc1 | 235/80 |  | 21 d | 8 µM |
| N/C(=N\N=C\c1ccccc1)SCc1ccccc1 | 6509/96 | broth dilution | 21 d | 125 µM |
| O=C(Oc1ccc(Cl)cc1C(=O)Nc1ccc(C(F)(F)F)cc1)c1cnccn1 | 6509/96 |  | 14 d | 2 µM |
| COc1cccc(CS/C(N)=N/N=C/c2cc(Cl)ccc2O)c1 | ATCC 12478 | broth dilution | 21 d | 32 µM |
| COc1ccc2oc(=O)n(-c3ccc(F)cc3)c(=S)c2c1 | My 235/80 |  | 21 d | 32 µM |
| O=C(Nc1cccc(Br)c1)c1ccc(Cl)cc1OS(=O)(=O)c1ccccc1 | 235/80 |  | 21 d | 62.5 µM |
| O=C(Oc1ccc(Cl)cc1C(=O)Nc1ccc(F)cc1)c1cnccn1 | 6509/96 |  | 21 d | 8 µM |
| O=C(Oc1ccc(Cl)cc1C(=O)Nc1cccc(Cl)c1)c1ccccc1 | 235/80 | broth dilution | 21 d | 8 µM |
| O=C(Nc1ccc(C(F)(F)F)cc1)c1ccc(Cl)cc1OS(=O)(=O)c1ccccc1 | 235/80 |  | 14 d | 4 µM |
| O=C(N[C@@H](Cc1ccccc1)c1cnc(-c2ccccc2)[nH]1)OCc1ccccc1 | My 6509/96 |  | 7 d | >250 µM |
| N/C(=N\N=C\c1cc(Br)ccc1O)SCc1ccc(F)cc1 | ATCC 12478 | broth dilution | 14 d | 32 µM |
| Cc1ccc2oc(=O)n(-c3cccc(Cl)c3)c(=S)c2c1 | My 235/80 |  | 14 d | 2 µM |
| O=C(Oc1cc(Cl)ccc1C(=O)Nc1ccc(C(F)(F)F)cc1)c1cnccn1 | 235/80 |  | 21 d | 2 µM |
| O=C(OCc1ccccc1)N1CCC[C@H]1c1cnc(-c2ccccc2)[nH]1 | My 6509/96 |  | 7 d | 62.5 µM |
| COc1ccc2oc(=S)n(-c3ccc(Cl)c(Cl)c3)c(=S)c2c1 | My 235/80 |  | 14 d | 32 µM |
| O=C(OCc1ccccc1)N1CCC[C@H]1c1cnc(-c2ccc([N+](=O)[O-])cc2)[nH]1 | My 35/80 |  | 7 d | 62.5 µM |
| COC(=O)c1cnccn1 | 235/80 |  | 14 d | >500 µM |
| O=C(Nc1cccc(Cl)c1)c1ccc(Cl)cc1OS(=O)(=O)c1ccccc1 | 235/80 |  | 14 d | 16 µM |
| O=C(Oc1cc(Cl)ccc1C(=O)Nc1ccc(Cl)cc1)c1cnccn1 | 235/80 |  | 14 d | 2 µM |
| O=c1oc2ccc(F)cc2c(=S)n1-c1ccc(F)cc1 | 6509/96 |  | 21 d | 8 µM |
| N/C(=N\N=C\c1ccccc1)SCc1ccc(C(F)(F)F)cc1 | 6509/96 | broth dilution | 14 d | 32 µM |
| COc1ccc2oc(=O)n(-c3ccc(Cl)cc3)c(=S)c2c1 | My 235/80 |  | 21 d | 16 µM |
| O=C(Oc1ccc(Cl)cc1C(=O)Nc1ccc(Br)cc1)c1ccccc1 | 235/80 | broth dilution | 7 d | 2 µM |
| O=C(Oc1cc(Cl)ccc1C(=O)Nc1cccc(F)c1)c1cnccn1 | 235/80 |  | 14 d | 4 µM |
| N/C(=N\N=C\c1cc(Cl)ccc1O)SCc1ccc(Cl)cc1 | ATCC 12478 | broth dilution | 14 d | 32 µM |
| C[C@H](NC(=O)OCc1ccccc1)c1cnc(-c2ccc([N+](=O)[O-])cc2)[nH]1 | My 6509/96 |  | 14 d | >125 µM |

For reference, 5 entries again:

smiles,strain or isolate,read by,setting,value
O=C(Nc1cccc(Cl)c1)c1ccc(Cl)cc1OS(=O)(=O)c1ccccc1,235/80,,14 d,16 µM
O=C(Oc1ccc(Cl)cc1C(=O)Nc1cccc(Cl)c1)c1cnccn1,6509/96,,14 d,2 µM
O=C(Nc1ccc(C(F)(F)F)cc1)c1ccc(Cl)cc1OS(=O)(=O)c1ccccc1,235/80,,14 d,4 µM
O=C(Oc1cc(Cl)ccc1C(=O)Nc1ccc(C(F)(F)F)cc1)c1cnccn1,235/80,,21 d,2 µM
O=C(OCc1ccccc1)N1CCC[C@H]1c1cnc(-c2ccc([N+](=O)[O-])cc2)[nH]1,My 35/80,,7 d,62.5 µM